Compound potency records, mixed from different reports. Data source: NIAID ChemDB in PubChem.

All rows: tests in culture; species: Candida albicans; read-out: MIC

Conditions beyond the fields shown may differ between rows. An empty or dashed field is not shown.

compound | strain | read by | setting | result
COc1ccccc1O | ATCC 90028 | XTT | biofilm | 1000 µg/mL
CCC(C)n1ncn(-c2ccc(N3CCN(c4ccc(OC[C@H]5CO[C@](Cn6cncn6)(c6ccc(Cl)cc6Cl)O5)cc4)CC3)cc2)c1=O | Isogenic mutant isolate 1 | - | - | 0.015 µg/mL
CCCC1c2cc(O)c(O)cc2CCN1CCC | IFO1061 | - | - | >500 µg/mL
O=C(/C=C/c1ccc(Cl)cc1Cl)c1cccc(N(CCO)CCO)c1 | ATCC 10231 | broth dilution | - | 128 µg/mL
Oc1c(Cl)cc(Cl)c2cccnc12 | ATCC 60913 | - | 24 h | 6.2 µg/mL
CCOc1ccc(Cc2c3cc(OCC)c(OCC)cc3cc(C)[n+]2C)cc1OCC | IFO1061 | - | - | >500 µg/mL
CC(C)c1cc2c(cc1O)[C@@]1(C)CCCC(C)(C)C1C[C@@H]2C | - | - | - | >250 µg/mL
O=C(O)c1ccc(/C=C/C(=O)c2ccccc2)cc1 | 1 clinical isolate | - | - | >32 µg/mL
Oc1c(Cl)ccc2cccnc12 | ATCC 60913 | - | 48 h | 12 µg/mL
CCN(CC)N1C(=O)C(C(Sc2ccccc2)c2ccccc2)SC1=S | ATCC 2091 | broth dilution | - | 64 µg/mL
COc1cc(/C=C/C(=O)N2C/C(=C\c3ccccc3)C(=O)/C(=C/c3ccccc3)C2)cc(OC)c1OC | 1 clinical isolate | - | - | >32 µg/mL
CN[C@@H]1[C@H](O[C@@H]2OC[C@@H](O)[C@H](O)[C@H]2O)[C@@H](O)[C@H](O[C@H]2c3cc(C)c(C(=O)N[C@H](C)C(=O)O)c(O)c3-c3c(cc4c(c3O)C(=O)c3cc(OC)cc(O)c3C4=O)[C@@H]2O)O[C@@H]1C | A9540 | - | - | 3.1 µg/mL
CCN(CC)N1C(=O)/C(=C/c2ccccc2)SC1=S | ATCC 2091 | broth dilution | - | 32 µg/mL
CCCCCc1nccc2cc(O)c(O)cc12 | IFO1061 | - | - | >500 µg/mL
C[C@H]1[C@H](O)[C@@H](C)/C=C/C=C/C=C/C=C/C=C/C=C/C=C/[C@H](O[C@@H]2O[C@H](C)[C@@H](O)[C@H](N)[C@@H]2O)C[C@@H]2O[C@](O)(C[C@@H](O)C[C@@H](O)CC[C@H](O)[C@@H](O)C[C@@H](O)CC(=O)O[C@H]1C)C[C@H](O)[C@H]2C(=O)O | CBS 562 | broth dilution | - | 0.038 µg/mL
Cc1ccc(C(=O)/C=C/c2ccc(C(=O)N3C/C(=C/c4ccccc4)C(=O)/C(=C\c4ccccc4)C3)cc2)cc1C | 1 clinical isolate | - | - | >32 µg/mL
N#[N+]c1nc(-c2ccccc2F)[nH]c1C(=O)N1CCCC1 | ATCC 10231 | - | - | >200 µg/mL
Oc1cc(Cl)cc2cccnc12 | ATCC 60913 | - | 24 h | 12 µg/mL
COc1ccc(Cc2c3ccc(OC)c(OC)c3cc[n+]2C)cc1OC | IFO1061 | - | - | >500 µg/mL
COc1cc(O)c2c(c1)C(=O)c1c(cc3c(c1O)-c1c(cc(C)c(C(=O)N[C@H](CO)C(=O)O)c1O)[C@H](O[C@@H]1O[C@H](C)[C@H](N(C)C)[C@H](O)[C@H]1O)[C@H]3O)C2=O | A9540 | - | - | 6.3 µg/mL
CCN(CC)N1C(=O)C(C(Sc2ccccc2)c2cccc(C)c2)SC1=S | ATCC 2091 | broth dilution | - | 32 µg/mL
O=C1/C(=C/c2ccccc2)CN(C(=O)c2ccc(/C=C/C(=O)c3ccc(Cl)cc3)cc2)C/C1=C\c1ccccc1 | 1 clinical isolate | - | - | >32 µg/mL
COc1ccc(O)c(C=O)c1 | ATCC 90028 | XTT | biofilm | 500 µg/mL
O=c1c(O)cc([C@H]2Oc3cc(O)cc(O)c3C[C@H]2O)cc2c([C@H]3Oc4cc(O)cc(O)c4C[C@H]3O)cc(O)c(O)c12 | NCTC 3255 | turbidity | - | 1024 µg/mL
COc1cc(O)c2c(c1)C(=O)c1c(cc3c(c1O)-c1c(cc(C)c(C(=O)N[C@H](CO)C(=O)O)c1O)[C@H](O)[C@H]3O)C2=O | A9540 | - | - | >100 µg/mL
N#[N+]c1nc(-c2cccc(F)c2)[nH]c1C(=O)N1CCCC1 | ATCC 10231 | - | - | 100 µg/mL
O=C(/C=C/c1ccccc1F)c1cccc(N(CCO)CCO)c1 | ATCC 10231 | broth dilution | - | 32 µg/mL
CCOC(=O)CC#N | - | broth dilution | - | 14000 µM
C[C@@H]1[C@H](O)[C@@H](C)/C=C/C=C/C=C/C=C/C=C/C=C/C=C/[C@H](O[C@@H]2O[C@H](C)[C@@H](O)[C@H](N)[C@@H]2O)C[C@@H]2O[C@](O)(C[C@@H](O)C[C@@H](O)[C@H](O)CC[C@@H](O)C[C@@H](O)CC(=O)O[C@H]1C)C[C@H](O)[C@H]2C(=O)O | ATCC 10231 | broth dilution | - | 0.15 µg/mL
N#[N+]c1nc[nH]c1C(=O)N1CCCC1 | ATCC 10231 | - | - | 100 µg/mL
CCCOc1cc2ccnc(CCC)c2cc1OCCC | IFO1061 | - | - | >500 µg/mL
COc1cc(C(=O)OCCc2ccc(O)cc2)ccc1O | ATCC 10231 | broth dilution | - | 250 µg/mL
CCN(CC)N1C(=O)C(C(Sc2ccccc2)c2ccc(OC)cc2)SC1=S | ATCC 2091 | broth dilution | - | 64 µg/mL
O=Cc1ccccc1O | ATCC 90028 | XTT | biofilm | 125 µg/mL

Again, the opening 4 rows:

{"compound": "COc1ccccc1O", "strain": "ATCC 90028", "read by": "XTT", "setting": "biofilm", "result": "1000 µg/mL"}
{"compound": "CCC(C)n1ncn(-c2ccc(N3CCN(c4ccc(OC[C@H]5CO[C@](Cn6cncn6)(c6ccc(Cl)cc6Cl)O5)cc4)CC3)cc2)c1=O", "strain": "Isogenic mutant isolate 1", "result": "0.015 µg/mL"}
{"compound": "CCCC1c2cc(O)c(O)cc2CCN1CCC", "strain": "IFO1061", "result": ">500 µg/mL"}
{"compound": "O=C(/C=C/c1ccc(Cl)cc1Cl)c1cccc(N(CCO)CCO)c1", "strain": "ATCC 10231", "read by": "broth dilution", "result": "128 µg/mL"}